Results taken from the supplement of paper PMC9931576.
Human monoclonal antibodies against the spike receptor-binding domain (heavy:light variable regions). IC50 against pseudoviruses bearing the spike of naturally observed variants; lower = stronger; >10 µg/ml means not reached at the top dose. No active / inactive call. The stated detection limit is 0.0005 µg/ml; values near or below 0.001 µg/ml lie at the floor of the assay.

How the values were obtained:
Assay in all cases: pseudovirus neutralization IC50; higher = weaker neutralization
[1] = target: SARS-CoV-2 Omicron BA.1 spike pseudovirus
Protocol: (§1)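 Single-round VSV luciferase pseudovirus mixed with antibody dilutions for 1 h and put on Huh-7 cells for about a day; IC50 from the dose curve.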

[2] = target: SARS-CoV-2 Omicron BA.2 spike pseudovirus
Protocol: as §1

[3] = target: SARS-CoV-2 Omicron BA.2.75 spike pseudovirus
Protocol: as §1

[4] = target: SARS-CoV-2 Omicron BA.5 spike pseudovirus
Protocol: as §1

[5] = target: SARS-CoV-2 Omicron BQ.1.1 spike pseudovirus
Protocol: as §1

[6] = target: SARS-CoV-2 Omicron XBB spike pseudovirus
Protocol: as §1

[7] = target: SARS-CoV-2 early D614G spike pseudovirus
Protocol: as §1

Row | Binder | pseudovirus neutralization IC50 [1] [µg/mL] | pseudovirus neutralization IC50 [2] [µg/mL] | pseudovirus neutralization IC50 [3] [µg/mL] | pseudovirus neutralization IC50 [4] [µg/mL] | pseudovirus neutralization IC50 [5] [µg/mL] | pseudovirus neutralization IC50 [6] [µg/mL] | pseudovirus neutralization IC50 [7] [µg/mL]
1 | BD56-471 (protein) chain 1: QMQLVQSGPEVKKPGASVKVSCKASGFTFTTSAVQWVRQAPGQRLEWIGWIVVGSSNTDCAQKFQERVTITGDMSTSTAYMDLSNLRSEDTAVYYCATPDCTNGVCTDAFDIWGQGTMVTVSS chain 2: EIVLTQSPGTLSLSPGERATLSCRASQSVRSNYLAWYQQKPGQAPRLLTYGASSRATGIPDRFSGSGSGTDFILIISRLEPEDFAVYYCQQFGNSPWTFGQGTKVEIK | 0.001 | 0.00182 | 0.000852 | 0.112 | 0.137 | 6.19 | 0.00175
2 | BD56-475 (protein) chain 1: EVQLVESGGGLVKPGGSLRLSCAASGFTFSTYSMNWVRQAPGKGLEWVSSISSSSTYIYYADSVKGRFTISRDNAKNSLYLQMNSLRAEDTAVYYCAKFTEVVPEAMNNWFDPWGQGTLVTVSS chain 2: EIVLTQSPATLSLSPGERATLSCRASQSVRSYLAWYQQKPGQAPRLLIYDASNRATGIPARFSGSGSGTDFTLTISSLEPEDFAVYYCQQRITFGQGTRLEIK | 6.35 | 8.15 | > 10 | > 10 | > 10 | > 10 | 1.36
3 | BD56-480 (protein) chain 1: QVQLVQSGSELKKPGASVKVSCKASAYTFTNYAMNWVRQAPGQGLEWMGWINTKTGNPKYAQDFTGRIVFSLDTSVSTAYLQISSLKAEDTAVYYCARDSGLLSFGELFHVFDMWGQGTMVTVSS chain 2: EIVLAQSPATLSLSPGERATLSCRASQSISTYFAWYQQKPGQPPRLLIYDTSNRAAGIPARFSGSGSGTDFTLTISSLEPEDFAVYYCLHRSNWLWTFGQGTKVEIK | 0.0955 | 0.0719 | 0.0217 | > 10 | > 10 | > 10 | 0.0185
4 | BD56-454 (protein) chain 1: QVQLVQSGAEVKKPGASVRVSCKASGYTFSDYGITWVRRAPGQGLEWMGWISAHNGDTNYAQQFEGRVTLTTDTSTSTAYMELRSLRSDDTAVYYCARDDYYSSGTYYKVVGLTNNWFDPWGQGTLVTVSS chain 2: DIQMTQSPSSLSASVGDRVTITCRASQTISSFLNWYQQQSGKAPKLLIYAASTLQSGVPSRFSGSGSGTEFTFTISGLQPEDFATYHCQQSYSYPPTFGGGTKVEIK | 0.0103 | 0.00274 | 0.00687 | 2.29 | > 10 | > 10 | 0.00357
5 | BD56-467 (protein) chain 1: QVQLVQSGAEVKKPGSSVKVSCKASGGTVSSYTISWVRQAPGQGLEWMGRIIPILNITNYAQNFQGRVTITADKPTSTAYMELSSLRSEDTAVYYCAKEDTGYCTSGVCDDAFDYWGQGTLVTVSS chain 2: DIQMTQSPSSLSASVGDRVTITCRASQSITNYLNWYQQKPGKAPKLLIYAASTLQSGVPSRFSGSGSGTEFALTISSLQPEDFATFYCQQSYSTLSLTFGGGTKVEI | 0.0492 | 0.00262 | 0.0041 | > 10 | > 10 | > 10 | 0.0028
6 | BD56-444 (protein) chain 1: EVQLVESGGDLVQPGRSLRLSCAASGFTFDDYDMHWVRQAPGKGLEWVSGITWNSGTIGYADSVKGRFIISRDNAKNSLYLQMRSLRVEDTALYYCVKDILGRGSKWYDPEDYGMDVWGQGTTVTVSS chain 2: SYVLTQPPSVSVAPGQTASITCGGNNIGRKSVHWYQQKPGRAPVLVVYDDRDRPSGIPERFSGANSGNTATLTISRVEAGDEADYYCQVWDTTTNNVVFGGGTKLTVL | 0.0405 | 0.0379 | 0.082 | 2.42 | > 10 | 3.28 | 0.00534
7 | BD56-477 (protein) chain 1: QVQLVQSGSELKKPGASVKVSCKASGYILSDYAMNWVRQAPGQGLEWMGWINTKTGNPKYAQGFTGRLVFSLDTSVSTAYLQISSLKNEDTAVYYCARDSGLLSFGDLFQAFDIWGQGTMVTVS chain 2: EIVLTQSPATLSLSPGERATLSCRASQSVSAYFAWYQQKPGQAPRLLIYDASKRAIGIPARFSGSGSGTDFTLTINSLEPEDFAVYYCQQRTNWLWAFGQGTKVEIK | 4.94 | 7.61 | 1.11 | > 10 | > 10 | > 10 | 0.92
8 | BD56-482 (protein) chain 1: QVQLVESGGGVVQSGRSLRLSCAASGFTFRSHAMHWVRQAPGKGLECVAVIWYDGSNKHYADSVKGRFTISRDNSKNILYLQMNSLRAEDTAIYYCAREGISVGAGGDDAFDIWGQGTMVTVSS chain 2: DIQMTQSPSSLSASVGDRVTITCRASQSISTFLNWYQQKPGKAPKLLIYAASSLHSGVPSRFSGSGSGTDFTLTISSLQPEDFATYYCQQSYDSPYTFGQGTNLEIK | 0.00639 | 0.00338 | 0.00451 | 4.57 | > 10 | > 10 | 0.00382
9 | BD56-447 (protein) chain 1: QMQLVQSGPEVKKPGTSVKVSCKASGFTFSSSAVQWVRQSRGQRLEWIGWIVVGSGNTEYAQKFQERVSITRDMSTNTAYMEVTSLRSEDTAVYYCAAPYCSTTICDDGFDIWGQGTMVTVSS chain 2: EIVLTQSPGTLSLSPGERATLSCRASQNVRSSYFAWYQQKPGQAPRLLIYVASSRATGIPDRFSGSGSGTDFTLTISRLEPEDFAVYYCQQYDKSPWTFGQGTKVEVK | 0.0177 | 0.0178 | 0.00149 | 1.84 | 1.48 | > 10 | 0.00162
10 | BD56-479 (protein) chain 1: QMQLVQSGPEVRKPGTSVKVSCKASGFTFTNSAVQWVRQARGQRLEWIGWIVVGSGDTNYAQNFQERVTITRDMSTSTAYMELSSLRSEDTAVYYCAANSCSGTTCYDAFDIWGQGTMVTVSS chain 2: EIVLTQSPDTLSLSPGERATLSCRASQSVSSSYLAWYQQKPGQAPRLFIYGASSRATGIPDRFFGSGSGTDFTLTISRLEPEDFAFYYCQQYGTSPWTFGQGTKVEIK | 0.0368 | 0.0557 | 0.0331 | > 10 | > 10 | > 10 | 0.00417
11 | BD56-445 (protein) chain 1: QVQLQESGPGLVKPSETLSLTCTVSGASISNYYWNWIRQSPGKGLEWIGCMYYGGKINYNPSLKSRATMSKDTSKNQFSLKLTSVTAADTAVYYCARGGPMIGVVADDAFDIWGQGTMVTVSS chain 2: DIQMTQSPSSLSASVGDRVTITCRASQSIGNYLNWYQQKPGKAPKLLIYAASSLQSGVPSRFSGSGSGTDFTLTISSLQREDFATYYCQQSYSTLQITFGQGTRLEIK | 0.205 | 0.0506 | 0.274 | 0.448 | > 10 | > 10 | 0.00572
12 | BD56-468 (protein) chain 1: QVQLVESGGGVVQPGRSLRLSCAASGFTFSIHGMHWVRQAPGKGLEWVTVIWFDGSKKYYADSVKGRFTISRDNSKNMLYLQMDSLRAEDTAVYYCARDAQDDDGGAHDAFDFWGQGTMVTVSS chain 2: DIQMTQSPSSLSASVGDRVTITCRSSQSISTFLNWYQQKPGNAPKLLIFATSSLQSGVPSRFSGSGSGTDFTLTIRSLQPEDFATYYCQQTYSTLGYTFGQGTKLEIK | 0.101 | 0.0203 | 0.147 | > 10 | > 10 | > 10 | 0.0271
